Fitness effects across NS2B and the NS3 protease domain of Zika virus

Values reported by Ni et al. 2025 (doi:10.1038/s41467-025-63602-z).

Chain scanned (Zika virus MR766; NS2B from position 2 to 131, then the start of NS3):
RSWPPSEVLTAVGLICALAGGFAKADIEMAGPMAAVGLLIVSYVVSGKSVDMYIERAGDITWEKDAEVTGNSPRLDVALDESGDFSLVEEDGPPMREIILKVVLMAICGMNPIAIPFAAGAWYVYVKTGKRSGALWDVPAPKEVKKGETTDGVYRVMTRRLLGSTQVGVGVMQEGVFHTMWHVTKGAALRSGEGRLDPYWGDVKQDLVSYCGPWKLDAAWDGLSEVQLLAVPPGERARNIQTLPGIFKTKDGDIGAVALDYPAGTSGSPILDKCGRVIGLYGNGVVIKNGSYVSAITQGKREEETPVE

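Pools of virus carrying all single amino acid changes were selected for growth in Huh-7.5 cells. Deep sequencing gave the change in frequency of each mutant relative to wild type, averaged over three replicate libraries (two for positions 207-308).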

The number is log2 of the effect relative to wild type; negative values mean reduced growth, higher values better tolerance.
Each entry names the wild-type residue, its position and the residue put in its place.

mutation,effect (log2)
W181*,-5.96
W181A,-5.61
W181C,-4.16
W181D,-4.12
W181E,-4.64
W181F,-5.15
W181G,-6.30
W181H,-4.85
W181I,-4.56
W181K,-4.90
W181L,-4.70
W181M,-4.97
W181N,-4.37
W181P,-5.93
W181Q,-5.09
W181R,-5.92
W181S,-6.45
W181T,-5.60
W181V,-5.71
W181Y,-4.80
H182*,-6.26
H182A,-5.19
H182C,-3.36
H182D,-3.28
H182E,-3.89
H182F,-3.82
H182G,-5.16
H182I,-3.43
H182K,-4.55
H182L,-6.39
H182M,-3.99
H182N,-3.14
H182P,-6.56
H182Q,-6.21
H182R,-6.29
H182S,-5.68
H182T,-5.88
H182V,-4.82
H182W,-4.75
H182Y,-3.91
V183*,-6.77
V183A,-6.18
V183C,-5.36
V183D,-5.04
V183E,-5.03
V183F,-5.56
V183G,-7.08
V183H,-4.48
V183I,-5.29
V183K,-4.56
V183L,-6.36
V183M,-4.62
V183N,-4.84
V183P,-5.82
V183Q,-4.54
V183R,-6.21
V183S,-6.38
V183T,-5.67
V183W,-5.40
V183Y,-4.84
T184*,-7.75
T184A,-6.74
T184C,-5.76
T184D,-5.41
T184E,-5.66
T184F,-5.73
T184G,-6.49
T184H,-5.74
T184I,-5.92
T184K,-6.28
T184L,-7.30
T184M,-5.78
T184N,-5.69
T184P,-7.05
T184Q,-5.78
T184R,-7.23
T184S,-1.91
T184V,-6.72
T184W,-5.63
T184Y,-5.70
K185*,-7.46
K185A,-4.16
K185C,-4.10
K185D,-4.88
K185E,-4.76
K185F,-5.30
K185G,-5.01
K185H,-1.54
K185I,-5.90
K185L,-5.33
K185M,-5.36
K185N,-5.72
K185P,-6.49
K185Q,-3.05
K185R,-1.60
K185S,-4.84
K185T,-4.98
K185V,-5.45
K185W,-5.39
K185Y,-5.37

Excerpt, the final 9 entries:

mutation,effect (log2)
K185N,-5.72
K185P,-6.49
K185Q,-3.05
K185R,-1.60
K185S,-4.84
K185T,-4.98
K185V,-5.45
K185W,-5.39
K185Y,-5.37

The authors count -1 or higher as tolerated. Position 1 is the last residue of NS2A.
Positions 1-103, 104-206 and 207-308 were made and measured as separate libraries.
Stop codons (*) centre on -7 and mark the level of dead virus.
Values above 0 are not proof of better growth: six high scorers were tested one by one, five grew less well than wild type and one about as well.